Compound potency records, mixed from different reports. Data source: NIAID ChemDB in PubChem.

All rows: tests in culture; agent: Cryptococcus neoformans; read-out: MIC50

An empty or dashed field is not shown.

smiles,strain,result
CC(=O)N1CCN(c2ccc(OC[C@H]3CO[C@](Cn4ccnc4)(c4ccc(Cl)cc4Cl)O3)cc2)CC1,12 strains,1 µg/mL
CCC(C)CC(C)CCCCCCCCC(=O)N[C@H]1C[C@@H](O)[C@H](NCCN)NC(=O)[C@@H]2[C@@H](O)CCN2C(=O)[C@H]([C@H](O)CCN)NC(=O)[C@H]([C@H](O)[C@@H](O)c2ccc(O)cc2)NC(=O)[C@@H]2C[C@@H](O)CN2C(=O)[C@H]([C@@H](C)O)NC1=O,15 strains,>8 µg/mL
CCC(C)n1ncn(-c2ccc(N3CCN(c4ccc(OC[C@H]5CO[C@](Cn6cncn6)(c6ccc(Cl)cc6Cl)O5)cc4)CC3)cc2)c1=O,12 strains,0.25 µg/mL
CCCCCOc1ccc(-c2ccc(-c3ccc(C(=O)N[C@H]4C[C@@H](O)[C@@H](O)NC(=O)[C@@H]5[C@@H](O)[C@@H](C)CN5C(=O)[C@H]([C@H](C)O)NC(=O)[C@H]([C@H](O)[C@@H](O)c5ccc(O)cc5)NC(=O)[C@@H]5C[C@@H](O)CN5C(=O)[C@H]([C@H](C)O)NC4=O)cc3)cc2)cc1,10 strains,>16 µg/mL
CC(C)(N)CSCc1ccc(-c2csc(-c3ccc(Cl)cc3)n2)cc1,,4 µg/mL
Nc1[nH]c(=O)ncc1F,15 isolates,2 µg/mL
C[C@H]1[C@H](O)[C@@H](C)/C=C/C=C/C=C/C=C/C=C/C=C/C=C/[C@H](O[C@@H]2O[C@H](C)[C@@H](O)[C@H](N)[C@@H]2O)C[C@@H]2O[C@](O)(C[C@@H](O)C[C@@H](O)CC[C@H](O)[C@@H](O)C[C@@H](O)CC(=O)O[C@H]1C)C[C@H](O)[C@H]2C(=O)O,ATCC 36556,0.49 µg/mL
CC(N1CCN(c2ccc(-n3cnnn3)cc2)C1=O)[C@](O)(Cn1cncn1)c1ccc(F)cc1F,14 strains,0.13 µg/mL
CC(C(O)(Cn1cncn1)c1ccc(F)cc1F)S(C)(=O)=O,9 strains,1 µg/mL
C=C1CO[C@H]2[C@@H](C)OC(OC[C@@]34C[C@H]5[C@H](C)CC[C@@H]5[C@@]5(C=O)C[C@@H]3C=C(C(C)C)[C@@]45C(=O)O)C[C@@H]12,16 strains (serotype D),0.5 µg/mL
CC[C@@H]([C@H](C)O)n1ncn(-c2ccc(N3CCN(c4ccc(OC[C@@H]5CO[C@@](Cn6cncn6)(c6ccc(F)cc6F)C5)cc4)CC3)cc2)c1=O,9 isolates,0.062 µg/mL
CCCCCCCCCCCCCCCCOP(=O)([O-])OCC[N+](C)(C)C,,0.5 µg/mL
CCCCCCCCCCCCCCCC(=O)N[C@H]1C[C@@H](O)[C@@H](O)NC(=O)[C@@H]2[C@@H](O)[C@@H](C)CN2C(=O)[C@H]([C@@H](C)O)NC(=O)[C@H]([C@H](O)[C@@H](O)c2ccc(O)cc2)NC(=O)[C@@H]2C[C@@H](O)CN2C(=O)[C@H]([C@@H](C)O)NC1=O,YC203,>2.5 µg/mL
CCCCCCCCOc1ccc(-c2ccc(C(=O)NC3CC(NCCN)CNC(=O)[C@@H]4[C@@H](O)[C@@H](C)CN4C(=O)[C@@H](CO)NC(=O)[C@H]([C@H](O)Cc4ccccc4)NC(=O)[C@@H]4C[C@@H](O)CN4C(=O)[C@H]([C@@H](C)O)NC3=O)cc2)cc1,30 isolates,8 µg/mL
CCC(C)CC(C)CCCCCCCCC(=O)N[C@H]1C[C@@H](O)[C@H](NCCN)NC(=O)[C@@H]2[C@@H](O)CCN2C(=O)[C@H]([C@H](O)CCN)NC(=O)[C@H]([C@H](O)[C@@H](O)c2ccc(O)cc2)NC(=O)[C@@H]2C[C@@H](O)CN2C(=O)[C@H]([C@@H](C)O)NC1=O,19 isolates,32 µg/mL
CCC(C)n1ncn(-c2ccc(N3CCN(c4ccc(OC[C@H]5CO[C@](Cn6cncn6)(c6ccc(Cl)cc6Cl)O5)cc4)CC3)cc2)c1=O,37 strains,0.25 µg/mL
C[C@@H]([C@H](N)C(=O)N[C@H](C(=O)O)[C@H]1O[C@@H](n2ccc(=O)[nH]c2=O)[C@H](O)[C@@H]1O)[C@H](O)c1ccc(O)cn1,15 isolates,>64 µg/mL
CC(C)=CCc1c(O)ccc(C(=O)/C=C/c2ccc(O)cc2)c1O,,7 µg/mL
C[C@H]1[C@H](O)[C@@H](C)/C=C/C=C/C=C/C=C/C=C/C=C/C=C/[C@H](O[C@@H]2O[C@H](C)[C@@H](O)[C@H](N)[C@@H]2O)C[C@@H]2O[C@](O)(C[C@@H](O)C[C@@H](O)CC[C@H](O)[C@@H](O)C[C@@H](O)CC(=O)O[C@H]1C)C[C@H](O)[C@H]2C(=O)O,32 isolates,0.13 µg/mL
C[C@H]1[C@H](O)[C@@H](C)/C=C/C=C/C=C/C=C/C=C/C=C/C=C/[C@H](O[C@@H]2O[C@H](C)[C@@H](O)[C@H](N)[C@@H]2O)C[C@@H]2O[C@](O)(C[C@@H](O)C[C@@H](O)CC[C@H](O)[C@@H](O)C[C@@H](O)CC(=O)O[C@H]1C)C[C@H](O)[C@H]2C(=O)O,5 isolates,0.25 µg/mL
CCCCCCCCOc1ccc(C(=O)NC2C[C@@H](O)[C@@H](O)NC(=O)C3[C@@H](O)[C@@H](C)CN3C(=O)C(C(C)O)NC(=O)C([C@H](O)[C@@H](O)c3ccc(O)cc3)NC(=O)C3C[C@@H](O)CN3C(=O)C(C(C)O)NC2=O)cc1,12 strains,>40 µg/mL
CN(C)CCCNCc1ccc(-c2csc(-c3ccc(Cl)cc3)n2)cc1,,1 µg/mL
Nc1[nH]c(=O)ncc1F,42 isolates (HIV+),2 µg/mL
CCCCCOc1ccc(-c2ccc(-c3ccc(C(=O)N[C@H]4C[C@@H](O)[C@@H](O)NC(=O)[C@@H]5[C@@H](O)[C@@H](C)CN5C(=O)[C@H]([C@H](C)O)NC(=O)[C@H]([C@H](O)[C@@H](O)c5ccc(O)cc5)NC(=O)[C@@H]5C[C@@H](O)CN5C(=O)[C@H]([C@H](C)O)NC4=O)cc3)cc2)cc1,15 isolates,>10.24 µg/mL
CCS(=O)(=O)C(F)(F)C(O)(Cn1cncn1)c1ccc(F)cc1F,26 strains,0.5 µg/mL
CC[C@@H]([C@H](C)O)n1ncn(-c2ccc(N3CCN(c4ccc(OC[C@@H]5CO[C@@](Cn6cncn6)(c6ccc(F)cc6F)C5)cc4)CC3)cc2)c1=O,373 isolates,0.12 µg/mL
CCC(C)CC(C)CCCCCCCCC(=O)N[C@H]1C[C@@H](O)[C@H](NCCN)NC(=O)[C@@H]2[C@@H](O)CCN2C(=O)[C@H]([C@H](O)CCN)NC(=O)[C@H]([C@H](O)[C@@H](O)c2ccc(O)cc2)NC(=O)[C@@H]2C[C@@H](O)CN2C(=O)[C@H]([C@@H](C)O)NC1=O,19 strains,32 µg/mL
CCCCCCCCCCCCCCCC(=O)NC1CC(O)C(O)NC(=O)C2C(O)C(C)CN2C(=O)C(C(O)CC(N)=O)NC(=O)C(C(O)C(O)c2ccc(O)c(OS(=O)(=O)O)c2)NC(=O)C2CC(O)CN2C(=O)C(C(C)O)NC1=O,YC203,>2.5 µg/mL
CC[C@@H]([C@H](C)O)n1ncn(-c2ccc(N3CCN(c4ccc(OC[C@@H]5CO[C@@](Cn6cncn6)(c6ccc(F)cc6F)C5)cc4)CC3)cc2)c1=O,15 strains,0.03 µg/mL
C[C@H]1[C@H](O)[C@@H](C)/C=C/C=C/C=C/C=C/C=C/C=C/C=C/[C@H](O[C@@H]2O[C@H](C)[C@@H](O)[C@H](N)[C@@H]2O)C[C@@H]2O[C@](O)(C[C@@H](O)C[C@@H](O)CC[C@H](O)[C@@H](O)C[C@@H](O)CC(=O)O[C@H]1C)C[C@H](O)[C@H]2C(=O)O,32 isolates,0.12 µg/mL
C[C@@H](c1ncncc1F)[C@](O)(Cn1cncn1)c1ccc(F)cc1F,,0.015 µg/mL
C[C@@H](SC1COC(/C=C/C=C/c2ccc(C#N)cc2F)OC1)[C@](O)(Cn1cncn1)c1ccc(F)cc1F,22 strains,≤0.008 µg/mL

The last 3 rows once more:

smiles | strain | result
C[C@H]1[C@H](O)[C@@H](C)/C=C/C=C/C=C/C=C/C=C/C=C/C=C/[C@H](O[C@@H]2O[C@H](C)[C@@H](O)[C@H](N)[C@@H]2O)C[C@@H]2O[C@](O)(C[C@@H](O)C[C@@H](O)CC[C@H](O)[C@@H](O)C[C@@H](O)CC(=O)O[C@H]1C)C[C@H](O)[C@H]2C(=O)O | 32 isolates | 0.12 µg/mL
C[C@@H](c1ncncc1F)[C@](O)(Cn1cncn1)c1ccc(F)cc1F |  | 0.015 µg/mL
C[C@@H](SC1COC(/C=C/C=C/c2ccc(C#N)cc2F)OC1)[C@](O)(Cn1cncn1)c1ccc(F)cc1F | 22 strains | ≤0.008 µg/mL

MIC50, MIC90 and the like: level of inhibition, or share of isolates inhibited. Neighbouring rows are from separate reports.